PubChem BioAssay AID504761 | Drosophila RNAi Screening Center, 2011

Aim: 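Insect host genes that dengue virus relies on to spread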 (primary screen)
Cell system: D.Mel-2 cells from Drosophila
Reagent: long dsRNA against Drosophila genes
Challenge: infection with dengue virus type 2; dose and infection time not stated
Measured: 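Per well on two replicate plates, imaging gave the percent of cells positive for viral envelope protein, ranked by infection, and a nuclear count of cells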
Scale: infection score: higher = more virus-infected cells
Hit rule: 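Very low infection ranking in both replicate wells (chance probability at most 0.065), then a retest showing infection dropped 1.5-fold or more at p below 0.05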
Calls: active = confirmed: knock-down lowers infection; inactive = not picked or not confirmed
The deposit covers about 22,000 reagents; shown is a random part of those that have a named target and a result. In the full data, 116 (0.52%) got an active call. 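Calls depend on retest data that are not deposited; infection was ranked per plate without normalising between plates; the unit of the infection score is not given.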 Entries without a mark were called inactive. Reagents against one gene are numbered here. A plus sign joins genes that one reagent is predicted to hit. Further read-outs or replicates are left out here. Not stated in the record: the amount of reagent, the time to read-out.

target gene	dsRNA no.	infection score, replicate 1	infection score, replicate 2
CG3104	1	0.68	0.97
gem	1	4.45	6.47
gem	2	14	11.4
CG31798	1	1.85	5.26
CG31798	2	17.7	2.62
ORMDL	1	6.83	18
ORMDL	2	18.9	9.56
Sytalpha	1	7.48	17.4
Uros2	1	5.69	5.18
tef	1	21.4	9.72
tef	2	3.56	9.77
tef	3	9.92	14.7
CG34276	1	5.19	3.27
CG18171	1	2.04	5.84
CG18171	2	10.2	19
MED26	1	5.93	1.33
MED26	2	9.99	3.23
MED26	3	1.96	21.4
Fip1	1	3.05	5.08
Blos4	1	1.36	0.53
Blos4	2	2.31	6.8
CG11322	1	2.87	0.7
CG11322	2	3.35	8.71
Jhe	1	10.2	9.73
Jhe	2	14.3	
Rab4	1	15.3	17.1
nesd	1	3.78	3.42
nesd	2	4.77	6.38
Cpr62Ba	1	3.83	0.43
CG42502 + CG10570	1	27.1	12.5
Spg7	1	0.22	6.64
Cpr64Ac	1	3.72	1.6
Cpr64Ac	2	8.53	4.32
Cox10	1	8.24	1.72

Next part (3 carried over from the part before).
target gene	dsRNA no.	infection score, replicate 1	infection score, replicate 2
Cpr64Ac	1	3.72	1.6
Cpr64Ac	2	8.53	4.32
Cox10	1	8.24	1.72
TTLL4A	1	25.1	3
TTLL4A	2	23.1	10.3
CG5653	1	1.58	3.64
CG5653	2	35.8	11.6
Prosbeta2R1	1	0.84	1.91
sncRNA:430e + His2A:CG33859 + His2A:CG33817 + 42 more	1	11.5	6.57
lectin-24A	1	7.31	5.65
CG30121 (retired record)	1	3.44	9.23
CG30121 (retired record)	2	16.7	17.5
Shawl	1	4.28	16.7
Shawl	2	3.59	2.85
Shawl	3	18.9	12.5
Prosbeta4	1		8.22
Cyp6a18	1	0.85	2.38
CG11333	1	3.3	
CG8545	1	3.82	5.1
side-VI	1	3.36	11.1
side-VI	2	0.95	1.55
side-VI	3	9.36	11.1
CG10713	1	0.51	2.83
CG10713	2	1.1 (active)	1.49
CG13377	1	8.75	1.48
pbl	1	7.2	2.77
pbl	2	6.64	14.4
